Results of unrelated studies side by side (data: NIAID ChemDB).

Common to all: tests in culture; agent: HIV-1; measure: EC50

ECn: concentration that inhibits the pathogen or its effect by n%. An empty or dashed field is not shown. Two numbers with a dash give a range or band. Conditions beyond the fields shown may differ between rows.

SMILES	strain or isolate	cell line	changes	result
COC(=O)C(=O)N1CCC[C@H]1C(=O)N[C@H](Cc1ccccc1)C(=O)NCCCc1ccc(OCC(=O)N[C@@H](CC(N)=O)C(=O)N[C@@H](Cc2ccccc2)[C@H](O)C(=O)N2CCC[C@H]2C(=O)NC(C)(C)C)cc1	-	-	-	>100 µg/mL
Nc1ccc2nc3ccccc3cc2c1	-	CEM	-	>50 µM
NCC(=O)CN	IIIB	CEM	-	1000 µM
COP(=O)(c1cc(C)cc(CCC#N)c1)c1c(C(N)=O)[nH]c2ccc(Cl)c(F)c12	Clinical isolate	MT-2	Y181C M184V	0.0014 µM
CCCCCCCCCCc1nccn(CCCCO)c1=O	LAI	CEM + CEM-SS	-	>100 µM
CC(C)(C)NC(=O)[C@@H]1CCCN1C(=O)[C@@H](O)[C@H](Cc1ccccc1)NC(=O)[C@H](CC(N)=O)NC(=O)COc1ccccc1[N+](=O)[O-]	-	-	-	6 µg/mL
O=C(CN1c2c(-c3ccccc3)n[nH]c2-c2ccccc2S1(=O)=O)N/N=C/c1ccccc1[N+](=O)[O-]	-	PBL	-	4.8 µM
Nc1ccc2cc(S(=O)(=O)O)cc(O)c2c1N=Nc1ccc(NC(=O)c2ccc(C(=O)Nc3ccc(N=Nc4c(N)ccc5cc(S(=O)(=O)O)cc(O)c45)c(S(=O)(=O)O)c3)cc2)cc1S(=O)(=O)O	-	CEM	-	4 µM
CSCCC(NS(=O)(=O)c1ccc(Cl)cc1)c1nnc(SCc2ccc(Cl)cc2)o1	IIIB	MT-4	-	>11.88 µg/mL
N#Cc1cc(Cl)cc(Oc2c(Br)ccc(CC(=O)Nc3ccc(S(N)(=O)=O)cc3Cl)c2F)c1	-	MT-4	L100I V106I E138K Y188L	>0.4 µM
O=C(CN1c2c(-c3ccccc3)n[nH]c2-c2ccccc2S1(=O)=O)N/N=C/c1c(Cl)cccc1Cl	-	PBMC	-	2.7 µM
CCc1c(Cc2cccc3ccccc23)n(COC)c(=O)[nH]c1=O	LAV	MT-4	-	0.213 µM
CC(C)(C)NC(=O)[C@@H]1CCCN1C(=O)[C@@H](O)[C@H](Cc1ccccc1)NC(=O)[C@H](CC(N)=O)NC(=O)COc1ccc([N+](=O)[O-])cc1	-	-	-	4.5 µg/mL
CSCCC(c1nnc(SCc2ccc(F)cc2)o1)N(Cc1ccc(F)cc1)S(=O)(=O)c1ccc(C)cc1	IIIB	MT-4	-	>125 µg/mL
Nc1cccc2cc3ccccc3nc12	-	Jurkat cells	-	>50 µM
O=C1OC(C(O)Cn2cc(F)c(=O)[nH]c2=O)C(OCc2ccccc2)=C1OCc1ccccc1	-	MT-4	-	>50 µg/mL
COCn1c(Cc2cccc3ccccc23)c(C(C)C)c(=O)[nH]c1=O	LAV	MT-4	-	0.065 µM
O=c1[nH]cnc2c1ncn2C1OC(CO)CC1(F)F	LAV	PBMC	-	>100 µM
CC[n+]1c(-c2ccccc2)c2cc(-n3cccc3)ccc2c2ccc(N)cc21	-	HeLa	-	1.5 µM
Cc1cn([C@@H]2O[C@@H]3CN[C@@]4(OCC(C)(C)C)CS(=O)(=O)O[C@@]34[C@H]2O[Si](C)(C)C(C)(C)C)c(=O)[nH]c1=O	IIIB	MT-4	-	<10 µM
CC(C)(CNC(=O)C(C)(C)C)NC(=O)[C@@H]1CCCN1C(=O)[C@@H](O)[C@H](Cc1ccccc1)NC(=O)[C@H](CC(N)=O)NC(=O)OCc1ccccc1	-	-	-	>100 µg/mL
CCCc1c(Cc2ccc3ccccc3c2)n(COCc2ccccc2)c(=O)[nH]c1=O	LAV	MT-4	-	6.688 µM
CSCCC(NS(=O)(=O)c1ccc(C)cc1)c1nnc(SCc2ccc(F)cc2)o1	IIIB	MT-4	-	>11.5 µg/mL
CC[n+]1c(-c2ccccc2)c2cc(NC(N)=O)ccc2c2ccc(NC(N)=O)cc21	-	HeLa	-	1.5 µM
CCc1c(Cc2ccc3ccccc3c2)n(COCCO)c(=O)[nH]c1=O	LAV	MT-4	-	45.6 µM
O=C1Nc2ccc(Cl)cc2[C@@](C#CC2CC2)(C(F)(F)F)[C@H]1OCC1CC1	RF	MT-2	-	<0.13 µM
Cc1ccc(S(=O)(=O)NC(C)c2nnc(SCc3ccccc3)o2)cc1	IIIB	MT-4	-	>59.58 µg/mL
O=c1[nH]cnc2c1ncn2O[C@H]1CO[C@@H](CO)O1	-	MT-4	-	>100 µg/mL
NCCN	IIIB	CEM	-	1000 µM
COc1cccc(S(=O)(=O)n2c(=O)[nH]c3ccc(Cl)cc32)c1	IIIB	MT-4	-	0.035 µM
CCOCn1c(Cc2cccc3ccccc23)c(CC)c(=O)[nH]c1=O	LAV	CEM	-	0.104 µM
Cc1cn([C@@H]2CC[C@H](COC(=O)CCCCCCCCC(=O)OC[C@H]3O[C@@H](n4cc(C)c(=O)[nH]c4=O)C[C@@H]3F)O2)c(=O)[nH]c1=O	IIIB	CEM	-	0.004 µM
NCC(N)C(=O)O	IIIB	CEM	-	1000 µM
CC(C)(C)NC(=O)[C@@H]1C[C@H](O)CN1C(=O)[C@@H](O)[C@H](Cc1ccccc1)NC(=O)[C@H](CC(N)=O)NC(=O)OCc1ccccc1	-	-	-	10–30 µg/mL
CCc1c(Cc2cccc3ccccc23)n(COCc2ccccc2)c(=O)[nH]c1=O	LAV	MT-4	-	0.017 µM
CC(NS(=O)(=O)c1ccc(Cl)cc1)c1nnc(SCc2ccc(Cl)cc2)o1	IIIB	MT-4	-	>14.08 µg/mL
O=S(=O)(O)c1cc2ccc1/C=C\c1ccc(cc1S(=O)(=O)O)N=Nc1ccc(c(S(=O)(=O)O)c1)/C=C\c1ccc(cc1S(=O)(=O)O)N=N2	-	CEM	-	5 µM
NC(=O)[C@@H]1CCCN1	IIIB	CEM	-	1000 µM
O=c1[nH]c(=O)n([C@H]2O[C@@H](CO)CC2(F)F)cc1F	LAV	PBMC	-	>100 µM
Cc1cn([C@@H]2CC[C@H](COC(=O)CCCCCCCCCCCCC(=O)OC[C@H]3O[C@@H](n4cc(C)c(=O)[nH]c4=O)C[C@@H]3N=[N+]=[N-])O2)c(=O)[nH]c1=O	IIIB	CEM	-	0.003 µM
CCCc1c(Cc2ccc3ccccc3c2)n(COC)c(=O)[nH]c1=O	LAV	CEM	-	>59.1 µM
Nc1ccc(CO[C@H]2C(=O)Nc3ccc(Cl)cc3[C@@]2(C#CC2CC2)C(F)(F)F)cc1	RF	MT-2	-	<0.021 µM
Nc1cc(O)c2cc(N=Nc3ccc(N=Nc4ccc(N=Nc5ccc6cc(S(=O)(=O)O)cc(S(=O)(=O)O)c6c5)c5ccccc45)c4cc(S(=O)(=O)O)ccc34)c(S(=O)(=O)O)cc2c1	-	CEM	-	7 µM
O=C1OC(C(O)Cn2ccc(=O)[nH]c2=O)C(OCc2ccccc2)=C1OCc1ccccc1	-	MT-4	-	>50 µg/mL
Nc1ncnc2c1ncn2[C@H]1O[C@@H](CO)[C@H](O)C1(F)F	LAV	PBMC	-	3.4 µM
O=C1Nc2ccc(Cl)cc2[C@@](C#CC2CC2)(C(F)(F)F)[C@H]1OCc1ccncc1	-	MT-2	RT-K103N	<0.05 µM
COC(=O)[C@H](C)NP(=O)(OC[C@@H]1C=C[C@H](n2cc(C)c(=O)[nH]c2=O)O1)Oc1ccccc1	IIIB	CEM + CEM/0	-	0.085 µM
NNC(=O)CN1c2c(-c3ccccc3)n[nH]c2-c2ccccc2S1(=O)=O	-	PBMC	-	>100 µM
CCCO[C@H]1C(=O)Nc2ccc(Cl)cc2[C@@]1(C#CC1CC1)C(F)(F)F	RF	MT-2	-	<0.062 µM
COc1ncnc2c1ncn2O[C@H]1CS[C@@H](CO)O1	-	MT-4	-	>100 µg/mL
O=C1Nc2ccc(Cl)cc2[C@@](C#CC2CC2)(C(F)(F)F)[C@H]1OCc1ccccc1	RF	MT-2	-	<0.071 µM
O=C1OC(C(O)Cn2cc(C(F)(F)F)c(=O)[nH]c2=O)C(OCc2ccccc2)=C1OCc1ccccc1	-	MT-4	-	>50 µg/mL
CCO[C@]12CS(=O)(=O)O[C@@]13[C@@H](CN2)O[C@@H](n1cc(C)c(=O)[nH]c1=O)[C@@H]3OC(C)=O	IIIB	MT-4	-	>250 µM
CCCCCCCCCCc1nccnc1OCCCCO	LAI	CEM + CEM-SS	-	>100 µM
CC(C)(C)NC(=O)c1c(CCC(O)Cc2ccc3ccccc3c2C(=O)NC(C)(C)C)ccc2ccccc12	-	CEM + CEM-SS	-	11.5 µM
Nc1nc(=O)n([C@H]2O[C@@H](CO)CC2(F)F)cc1F	LAV	PBMC	-	>100 µM
Nn1cc[nH]c1=S	IIIB	-	-	0.2–4 µg/mL
O=C(CN1c2c(-c3ccccc3)n[nH]c2-c2ccccc2S1(=O)=O)N/N=C/c1cccc(Br)c1	-	PBMC	-	6 µM
Cc1cn([C@@H]2O[C@@H]3CN[C@@]4(O[Si](C)(C)C(C)(C)C)CS(=O)(=O)O[C@@]34[C@H]2O[Si](C)(C)C(C)(C)C)c(=O)[nH]c1=O	IIIB	CEM	-	>2 µM
O=c1[nH]cnc2c1ncn2O[C@@H]1CS[C@@H](CO)O1	-	MT-4	-	>100 µg/mL
Nc1ccc2cc(S(=O)(=O)O)cc(O)c2c1N=Nc1ccc(NC(=O)Nc2ccc(N=Nc3c(N)ccc4cc(S(=O)(=O)O)cc(O)c34)c(S(=O)(=O)O)c2)cc1S(=O)(=O)O	-	CEM	-	10 µM
Cc1cn([C@@H]2O[C@@H]3CN[C@@]4(OCCOc5ccccc5)CS(=O)(=O)O[C@@]34[C@H]2O)c(=O)[nH]c1=O	IIIB	MT-4	-	>250 µM